Anti-infective test results gathered from many reports (values: NIAID ChemDB through PubChem).

All rows: growth or infection tests; species: Mycobacterium avium complex; read-out: MIC

Conditions beyond the fields shown may differ between rows.

O=C1c2ccccc2-n2c1nc1ccncc1c2=O ; strain or isolate: 19075 ; value: 5 µg/mL
CN[C@@H]1[C@@H](O)C(O[C@@H]2[C@@H](O)[C@H](OC3O[C@H](CN)[C@@H](O)[C@H](O)[C@H]3O)[C@@H](N)C[C@H]2NC(=O)[C@@H](O)CN)OC[C@]1(C)O ; strain or isolate: T24 ; value: 25 µg/mL
Cc1ccc(CSc2ccncc2)cc1 ; strain or isolate: NJ211 ; value: >12.8 µg/mL
CO[C@H]1/C=C/O[C@@]2(C)Oc3c(C)c(O)c4c(O)c(c5c(c4c3C2=O)NC2(CCN(CC(C)C)CC2)N=5)=NC(=O)/C(C)=C\C=C\[C@H](C)[C@H](O)[C@@H](C)[C@@H](O)[C@@H](C)[C@H](OC(C)=O)[C@@H]1C ; strain or isolate: 101 ; value: 0.5 µg/mL
CC1(C)N=C(N)N=C(N)N1OCCCOc1cc(Cl)c(Cl)cc1Cl ; strain or isolate: 189 ; value: 2 µg/mL
CC[C@H]1OC(=O)[C@H](C)[C@@H](O[C@H]2C[C@@](C)(OC)[C@@H](O)[C@H](C)O2)[C@H](C)[C@@H](O[C@@H]2O[C@H](C)C[C@H](N(C)C)[C@H]2O)[C@](C)(OC)C[C@@H](C)C(=O)[C@H](C)[C@@H](O)[C@]1(C)O ; strain or isolate: N-980 (HIV+) ; value: 0.5 µg/mL
COc1cc(NCc2cnc3nc(N)nc(N)c3c2C)cc(OC)c1OC ; strain or isolate: NJ168 ; value: ≤0.13 µg/mL
CCCCNC(=O)OCCN=c1ssc2ccccc12 ; strain or isolate: ISS 486 ; value: 4 µg/mL
CCCCNC(=O)O[C@H]1C(O[C@@H]2[C@@H](C)[C@H](O[C@H]3C[C@@](C)(OC)[C@@H](OC(C)=O)[C@H](C)O3)[C@@H](C)C(=O)O[C@H](CC)[C@@](C)(O)[C@H](O)[C@@H](C)/C(=N/OCCCC3CCCCC3)[C@H](C)CC2(C)O)O[C@H](C)C[C@@H]1N(C)C ; strain or isolate: 20092 ; value: 0.1 µg/mL
O=C1c2cc(I)ccc2-n2c1nc1c(Br)cc(Br)c(F)c1c2=O ; strain or isolate: 19075 ; value: 1 µg/mL
COc1ccc(Sc2ncccn2)cc1 ; strain or isolate: NJ211 ; value: >12.8 µg/mL
O=C1c2cc(F)ccc2-n2c1nc1ccccc1c2=O ; strain or isolate: 101 ; value: 1 µg/mL
NCC[C@H](O)C(=O)N[C@@H]1C[C@H](N)[C@@H](O[C@H]2O[C@H](CN)[C@@H](O)[C@H](O)[C@H]2O)[C@H](O)[C@H]1O[C@H]1O[C@H](CO)[C@@H](O)[C@H](N)[C@H]1O ; strain or isolate: 900 ; value: 1 µg/mL
CO[C@H]1/C=C/O[C@@]2(C)Oc3c(C)c(O)c4c(=O)c(c5oc6cc(N7CCN(CC(C)C)CC7)cc(=O)c6nc5c4c3=C2O)NC(=O)/C(C)=C\C=C\[C@H](C)[C@H](O)[C@@H](C)[C@@H](O)[C@@H](C)[C@H](OC(C)=O)[C@@H]1C ; strain or isolate: N-961 (HIV+) ; value: 0.0313 µg/mL
O=C(N1CCC(CN=c2cc3n(-c4ccc(Cl)cc4)c4ccccc4nc-3cc2Nc2ccc(Cl)cc2)CC1)N1CC1 ; strain or isolate: 100 ; value: ≥16 µg/mL
CCCCCNC(=O)O[C@H]1C(O[C@@H]2[C@@H](C)[C@H](O[C@H]3C[C@@](C)(OC)[C@@H](OC(C)=O)[C@H](C)O3)[C@@H](C)C(=O)O[C@H](CC)[C@@](C)(O)[C@H](O)[C@@H](C)/C(=N/OCCCC3CCCCC3)[C@H](C)CC2(C)O)O[C@H](C)C[C@@H]1N(C)C ; strain or isolate: 20096 ; value: 0.2 µg/mL
O=C1c2cc([N+](=O)[O-])ccc2-n2c1nc1ncccc1c2=O ; strain or isolate: 19075 ; value: 25 µg/mL
Cc1c(CNc2cc(C(F)(F)F)ccc2F)cnc2nc(N)nc(N)c12 ; strain or isolate: NJ168 ; value: ≤0.13 µg/mL
N#Cc1ccnc(SCc2c(F)cccc2Cl)c1 ; strain or isolate: MY330/88 ; value: >500 µM
CC[C@H]1OC(=O)[C@H](C)[C@@H](O[C@H]2C[C@@](C)(OC)[C@@H](O)[C@H](C)O2)[C@H](C)[C@@H](O[C@@H]2O[C@H](C)C[C@H](N(C)C)[C@H]2O)[C@](C)(OC)C[C@@H](C)C(=O)[C@H](C)[C@@H](O)[C@]1(C)O ; strain or isolate: Isolate 90-0804 ; value: 3 µg/mL
CCCNC(=O)OCCn1sc2ccccc2c1=O ; strain or isolate: AN2 ; value: >32 µg/mL
CC[C@H]1OC(=O)[C@H](C)[C@@H](O[C@H]2C[C@@](C)(OC)[C@@H](O)[C@H](C)O2)[C@H](C)[C@@H](O[C@@H]2O[C@H](C)C[C@H](N(C)C)[C@H]2O)[C@](C)(O)C[C@@H](C)CN(C)[C@H](C)[C@@H](O)[C@]1(C)O ; strain or isolate: SK095 ; value: 128 µg/mL
Cc1cc(C)nc(NS(=O)(=O)c2ccc(N)cc2)n1 ; strain or isolate: 101 ; value: >128 µg/mL
O=C1c2cc(F)ccc2-n2c1nc1c(OCc3ccccc3)cccc1c2=O ; strain or isolate: 19075 ; value: >25 µg/mL
CCSc1nc(Cl)nc2nc[nH]c12 ; strain or isolate: NJ211 ; value: >12.8 µg/mL
N#Cc1ccnc(SCc2cccc(F)c2)c1 ; strain or isolate: MY330/88 ; value: 250 µM
CCCNC(=O)OCCn1sc2ccccc2c1=S ; strain or isolate: ATCC 15769 ; value: 4 µg/mL
CC1(C)N=C(N)N=C(N)N1OCCCOc1cc(Cl)c(Cl)cc1Cl ; strain or isolate: DW13 ; value: 4 µg/mL
COc1cccc2c1n([O-])c1cccc(OC)c1[n+]2=O ; strain or isolate: 109 ; value: ≥16 µg/mL
Nc1ccc(S(=O)(=O)c2ccc(N)cc2)cc1 ; strain or isolate: DW17 ; value: 64 µg/mL
OCCn1sc2ccccc2c1=S ; strain or isolate: AN3 ; value: 2 µg/mL
CCCCCCCCCCCCCCN(C)C(=O)O[C@H]1C(O[C@@H]2[C@@H](C)[C@H](O[C@H]3C[C@@](C)(OC)[C@@H](OC(C)=O)[C@H](C)O3)[C@@H](C)C(=O)O[C@H](CC)[C@@](C)(O)[C@H](O)[C@@H](C)/C(=N/OCCCC3CCCCC3)[C@H](C)CC2(C)O)O[C@H](C)C[C@@H]1N(C)C ; strain or isolate: 20096 ; value: 0.2 µg/mL
NC(=S)c1ccnc(SCc2cccc(Br)c2)c1 ; strain or isolate: MY330/88 ; value: 31 µM
CC[C@H]1OC(=O)[C@H](C)[C@@H](O[C@H]2C[C@@](C)(OC)[C@@H](OC(C)=O)[C@H](C)O2)[C@H](C)[C@@H](OC2O[C@H](C)C[C@H](N(C)C)[C@H]2OC(=O)NCC(=O)NC)C(C)(O)C[C@@H](C)/C(=N\OCCCC2CCCCC2)[C@H](C)[C@@H](O)[C@]1(C)O ; strain or isolate: 20034 ; value: 0.78 µg/mL
COc1cc(OC)cc(N(C)Cc2cnc3nc(N)nc(N)c3c2C)c1 ; strain or isolate: NJ211 ; value: ≤0.13 µg/mL
CC(C)(C)NC(=O)OCCn1sc2ccccc2c1=S ; strain or isolate: ISS 486 ; value: 4 µg/mL
CCc1c(CNc2cc(C(F)(F)F)ccc2OC)cnc2nc(N)nc(N)c12 ; strain or isolate: NJ211 ; value: ≤0.13 µg/mL
CC[C@H]1OC(=O)[C@H](C)[C@@H](O[C@H]2C[C@@](C)(OC)[C@@H](O)[C@H](C)O2)[C@H](C)[C@@H](O[C@@H]2O[C@H](C)C[C@H](N(C)C)[C@H]2O)[C@](C)(O)C[C@@H](C)CN(C)[C@H](C)[C@@H](O)[C@]1(C)O ; strain or isolate: G ; value: 8 µg/mL
COc1cccc2c1nc1cccc(OC)c1[n+]2[O-] ; strain or isolate: 101 ; value: 16 µg/mL
COc1ccc(Sc2ncccn2)cc1OC ; strain or isolate: NJ211 ; value: >12.8 µg/mL
COc1cccc2c(=O)n3c(nc12)C(=O)c1cc(I)ccc1-3 ; strain or isolate: 101 ; value: 1 µg/mL
CC(C)N=C(N)N(OCCCOc1cc(Cl)c(Cl)cc1Cl)C(=N)N ; strain or isolate: LPR ; value: 32 µg/mL
N#Cc1ccnc(SCc2ccccc2F)c1 ; strain or isolate: MY330/88 ; value: 125 µM
O=C1c2ccc(Cl)cc2-n2c1nc1ncccc1c2=O ; strain or isolate: 19075 ; value: 25 µg/mL
COc1ccc(NCc2cnc3nc(N)nc(N)c3c2C)cc1F ; strain or isolate: NJ3404 ; value: ≤0.13 µg/mL
CC[C@H]1OC(=O)[C@H](C)[C@@H](O[C@H]2C[C@@](C)(OC)[C@@H](O)[C@H](C)O2)[C@H](C)[C@@H](O[C@@H]2O[C@H](C)C[C@H](N(C)C)[C@H]2O)[C@](C)(OC)C[C@@H](C)C(=O)[C@H](C)[C@@H](O)[C@]1(C)O ; strain or isolate: N-444 ; value: 6.25 µg/mL
CC[C@H]1OC(=O)[C@H](C)[C@@H](O[C@H]2C[C@@](C)(OC)[C@@H](O)[C@H](C)O2)[C@H](C)[C@@H](O[C@@H]2O[C@H](C)C[C@H](N(C)C)[C@H]2O)[C@](C)(O)C[C@@H](C)/C(=N\OCOCCOC)[C@H](C)[C@@H](O)[C@]1(C)O ; strain or isolate: MO-1 ; value: 4 µg/mL
CC(C)(C)NC(=O)OCCn1sc2ccccc2c1=O ; strain or isolate: AN3 ; value: >32 µg/mL
NC(=S)c1ccnc(SCc2ccc(Br)cc2)c1 ; strain or isolate: MY330/88 ; value: 31 µM
Cc1c(CNc2ccc3c(c2)Cc2ccccc2-3)cnc2nc(N)nc(N)c12 ; strain or isolate: NJ168 ; value: ≤0.13 µg/mL
CCNC(=O)OCCn1sc2ccccc2c1=O ; strain or isolate: AN1 ; value: 16 µg/mL
O=C1c2cc(F)ccc2-n2c1nc1ccncc1c2=O ; strain or isolate: 19075 ; value: 5 µg/mL
CCOc1ccc(OCC)c(N(C)Cc2cnc3nc(N)nc(N)c3c2C)c1 ; strain or isolate: NJ211 ; value: ≤0.13 µg/mL
NNC(=O)c1ccncc1 ; strain or isolate: N-269 (HIV-) ; value: 4 µg/mL
CO[C@H]1/C=C/O[C@@]2(C)Oc3c(C)c(O)c4c(O)c(c5c(c4c3C2=O)NC2(CCN(CC(C)C)CC2)N=5)=NC(=O)/C(C)=C\C=C\[C@H](C)[C@H](O)[C@@H](C)[C@@H](O)[C@@H](C)[C@H](OC(C)=O)[C@@H]1C ; strain or isolate: LA-1 ; value: 2 µg/mL
C[C@@H]1CN(c2c(F)c(N)c3c(=O)c(C(=O)O)cn(C4CC4)c3c2F)C[C@H](C)N1 ; strain or isolate: ATCC 13950 ; value: 0.5 µg/mL
Cc1ccc(NCc2cnc3nc(N)nc(N)c3c2C)cc1Br ; strain or isolate: NJ168 ; value: ≤0.13 µg/mL
CC(C)(C)NC(=O)OCCN=c1ssc2ccccc12 ; strain or isolate: AN2 ; value: 4 µg/mL
CC/C=C/CCNC(=O)O[C@H]1C(O[C@@H]2[C@@H](C)[C@H](O[C@H]3C[C@@](C)(OC)[C@@H](OC(C)=O)[C@H](C)O3)[C@@H](C)C(=O)O[C@H](CC)[C@@](C)(O)[C@H](O)[C@@H](C)/C(=N/OCCCC3CCCCC3)[C@H](C)CC2(C)O)O[C@H](C)C[C@@H]1N(C)C ; strain or isolate: 20045 ; value: 0.2 µg/mL
Cc1ccc(CSc2ccccn2)cc1 ; strain or isolate: NJ211 ; value: >12.8 µg/mL
C/C(=N\NC(N)=S)c1cccnc1 ; strain or isolate: 116 ; value: 16 µg/mL
OCCN=c1ssc2ccccc12 ; strain or isolate: AN3 ; value: 2 µg/mL

The first 6 rows once more:

SMILES | strain or isolate | value
O=C1c2ccccc2-n2c1nc1ccncc1c2=O | 19075 | 5 µg/mL
CN[C@@H]1[C@@H](O)C(O[C@@H]2[C@@H](O)[C@H](OC3O[C@H](CN)[C@@H](O)[C@H](O)[C@H]3O)[C@@H](N)C[C@H]2NC(=O)[C@@H](O)CN)OC[C@]1(C)O | T24 | 25 µg/mL
Cc1ccc(CSc2ccncc2)cc1 | NJ211 | >12.8 µg/mL
CO[C@H]1/C=C/O[C@@]2(C)Oc3c(C)c(O)c4c(O)c(c5c(c4c3C2=O)NC2(CCN(CC(C)C)CC2)N=5)=NC(=O)/C(C)=C\C=C\[C@H](C)[C@H](O)[C@@H](C)[C@@H](O)[C@@H](C)[C@H](OC(C)=O)[C@@H]1C | 101 | 0.5 µg/mL
CC1(C)N=C(N)N=C(N)N1OCCCOc1cc(Cl)c(Cl)cc1Cl | 189 | 2 µg/mL
CC[C@H]1OC(=O)[C@H](C)[C@@H](O[C@H]2C[C@@](C)(OC)[C@@H](O)[C@H](C)O2)[C@H](C)[C@@H](O[C@@H]2O[C@H](C)C[C@H](N(C)C)[C@H]2O)[C@](C)(OC)C[C@@H](C)C(=O)[C@H](C)[C@@H](O)[C@]1(C)O | N-980 (HIV+) | 0.5 µg/mL